Experimental data reported in patent US4859611A (priority 1986, dated 1989).

Test system: IgM antibody for AFB1
Settings: AF-FAPyr relative to AF-N^7 -Gua

SMILES: COc1cc2c(c3oc(=O)c4c(c13)CCC4=O)C1C(O2)OC(N(C=O)c2c(N)nc(N)[nH]c2=O)C1O (stereo not shown)
- relative sensitivity of IgM antibody in detecting AF-FAPyr adduct versus AF-N^7 -Gua adduct: approximately four times more sensitive
